Results published in patent US11472778B2, “Hepatitis C virus NS3/4A protease inhibitors” (priority 2017, dated 2022).

Biological target: GT1a D168A NS3/4A protease
Conditions: Table 6; with respect to GT1a wild-type

## COc1ccc2nc(C)c(O[C@@H]3C[C@H]4C(=O)N[C@]5(C(=O)NS(=O)(=O)C6(C)CC6)C[C@H]5/C=C\CCCCC[C@H](NC(=O)OC(C)(C)C(F)(F)F)C(=O)N4C3)nc2c1
  Ki (Fold Change) D168A: (15) fold
